{"source": "PubChem BioAssay AID1259311", "about": "(ICCB-Longwood Screening Facility, Harvard Medical School, 2017)", "note": "This is a selection; strong and weak results do not stand in their true shares. Active and inactive are the calls of the source. Rule as the data show it: active = inhibition above about 85%; inactive = the rest."}
{"assay": "growth inhibition of S. aureus RN4220, primary screen, OD600 (AID 1259311);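 also: plate controls were untreated cells for no effect and reference antibiotic for full effect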", "conditions": "OD600, 16 h, hits give high values"}
{"smiles": "COc1cc(C(=O)NCC2(N3CCOCC3)CCCCC2)ccc1OCC(C)C", "inhibition": "inactive: 2.7%"}
{"smiles": "O=[N+]([O-])c1ccc(-c2cc([N+](=O)[O-])c(O)c([N+](=O)[O-])c2)cc1", "inhibition": "inactive: 21.1%"}
{"smiles": "CCCC(C)(O)C1CC23C=CC1(OC)C1Oc4c(O)ccc5c4[C@@]12CCN(C)[C@@H]3C5", "note": "(stereo partly specified)", "inhibition": "inactive: 1.49%"}
{"smiles": "O=[N+]([O-])c1cc([N+](=O)[O-])c(Nc2cccnc2)c([N+](=O)[O-])c1", "inhibition": "active: 98.5%"}
{"smiles": "CCC(CO)(C(=O)OC1CN2CCC1CC2)c1ccccc1", "note": "(stereo unspecified)", "inhibition": "inactive: -2.73%"}
{"smiles": "COc1ccc2nc(NP(=O)(c3ccccc3)c3ccccc3)sc2c1", "inhibition": "inactive: 5.19%"}
{"smiles": "COc1cc(I)ccc1[As](=O)(O)O", "inhibition": "inactive: 1.53%"}
{"smiles": "O=P1(N(CCCl)CCCl)Nc2ccccc2N1", "inhibition": "inactive: 3.92%"}
{"smiles": "O=C(OC1CN2CCC1CC2)C12CC3CC(CC(C3)C1)C2", "note": "(stereo unspecified)", "inhibition": "inactive: 0.161%"}
{"smiles": "CCN(CC)CCCOC(=O)C(O)(c1ccccc1)c1ccccc1", "inhibition": "inactive: 3.28%"}
{"smiles": "Cc1cc(=O)[nH]c(N[N+](=O)[O-])n1", "inhibition": "inactive: -0.927%"}
{"smiles": "Cc1c2c(nc3ccccc13)SC(C(Cl)Cl)C2", "note": "(stereo unspecified)", "inhibition": "inactive: 2.04%"}
{"smiles": "CP(=O)(Nc1ccccn1)Oc1ccc(Cl)cc1", "note": "(stereo unspecified)", "inhibition": "inactive: 3.17%"}
{"smiles": "CCC(C)N(CC(C)C)C(=S)SC(NC(C)=O)C(Cl)(Cl)Cl", "note": "(stereo unspecified)", "inhibition": "inactive: -5.4%"}
{"smiles": "CCOC(=O)c1ccc(NC(=O)C(C)(CCl)SC)cc1", "note": "(stereo unspecified)", "inhibition": "inactive: 0.924%"}
{"smiles": "CCOC(=O)c1ccc(NP(C)(=O)Oc2ccc(OC)cc2)cc1", "note": "(stereo unspecified)", "inhibition": "inactive: 5.48%"}
{"smiles": "O=[N+]([O-])c1cc([N+](=O)[O-])c(O)c([N+](=O)[O-])c1.c1ccc(Oc2ccncc2)cc1", "inhibition": "inactive: 3.79%"}
{"smiles": "O=C(OC1CN2CCC1CC2)c1cccc([N+](=O)[O-])c1", "note": "(stereo unspecified)", "inhibition": "inactive: 4.67%"}
{"smiles": "CCOP(C)(=S)SCC(=O)NC(C)C(=O)O", "note": "(stereo unspecified)", "inhibition": "inactive: -1.09%"}
{"smiles": "CCc1ccc(OP(C)(=O)N2CCN(c3ccc([N+](=O)[O-])cc3)CC2)cc1", "note": "(stereo unspecified)", "inhibition": "inactive: 2.51%"}
{"smiles": "O=C(COc1ccccc1)OC1CN2CCC1CC2", "note": "(stereo unspecified)", "inhibition": "inactive: 2.57%"}
{"smiles": "CP(=O)(NC(=O)Nc1ccccc1)Oc1ccccc1", "note": "(stereo unspecified)", "inhibition": "inactive: 1.21%"}
{"smiles": "O=C(Nc1ccncc1[N+](=O)[O-])c1ccc([N+](=O)[O-])cc1[N+](=O)[O-]", "inhibition": "inactive: 8.37%"}
{"smiles": "Cc1cc(C)cc(OP(C)(=O)Nc2ccc(SC(F)(F)F)cc2)c1", "note": "(stereo unspecified)", "inhibition": "inactive: 4.15%"}
{"smiles": "CC1OP(=O)(Oc2ccccc2)C(O)C(O)C1N=[N+]=[N-]", "note": "(stereo unspecified)", "inhibition": "inactive: 4.14%"}
{"smiles": "Cc1cccc(C)c1OP(C)(=O)Nc1ccc(SC(F)(F)F)cc1", "note": "(stereo unspecified)", "inhibition": "inactive: -0.0333%"}
{"smiles": "CP(=O)(Nc1ccc(SC(F)(F)F)cc1)Oc1ccc(Cl)cc1", "note": "(stereo unspecified)", "inhibition": "inactive: -1.15%"}
{"smiles": "COP1(=S)c2c(C)nn(CCC#N)c2N=C(c2ccc(F)cc2)N1C", "note": "(stereo unspecified)", "inhibition": "inactive: 1.08%"}
{"smiles": "CP(=O)(Oc1ccccc1)OC(c1ccccc1)C(F)(F)F", "note": "(stereo unspecified)", "inhibition": "inactive: 6.96%"}
{"smiles": "CP(=O)(Nc1ccccc1Br)Oc1ccccc1", "note": "(stereo unspecified)", "inhibition": "inactive: -2.45%"}
{"smiles": "O=[N+]([O-])c1ccc(Nc2ccc(Oc3ccc([N+](=O)[O-])cc3[N+](=O)[O-])cc2)c([N+](=O)[O-])c1", "inhibition": "inactive: 7.1%"}
{"smiles": "O=P(Nc1ccccn1)(c1cccc2ccccc12)c1cccc2ccccc12", "inhibition": "inactive: 1.04%"}
{"smiles": "Cc1cc(SC(NC=O)C(Cl)(Cl)Cl)ncn1", "note": "(stereo unspecified)", "inhibition": "inactive: -6.2%"}
{"smiles": "COc1ccccc1OP(C)(=O)Nc1ccccc1", "note": "(stereo unspecified)", "inhibition": "inactive: 6.87%"}
{"smiles": "CCOC(=O)Nc1cccc([As](=O)(O)O)c1", "inhibition": "inactive: 8.23%"}
{"smiles": "CP(=S)(Nn1cnnc1)Oc1ccccc1", "note": "(stereo unspecified)", "inhibition": "inactive: 4.3%"}
{"smiles": "CCCCOc1ccc(C(=O)NCC2(N3CCCCC3)CCCCC2)cc1OC", "inhibition": "inactive: -1.03%"}
{"smiles": "COc1ccc(NC(=NP(=O)(N2CCOCC2)N2CCOCC2)N2CCOCC2)cc1", "inhibition": "inactive: 6.88%"}
{"smiles": "Cc1cc(SC(NC(=O)c2ccccc2)C(Cl)(Cl)Cl)nc(C(C)C)n1", "note": "(stereo unspecified)", "inhibition": "inactive: -2.6%"}
{"smiles": "CC1CCNP(=O)(N(CCCl)CCCl)O1", "note": "(stereo unspecified)", "inhibition": "inactive: 5.09%"}
{"smiles": "CCOC(=O)Nc1ccc([As](=O)(O)O)c(O)c1", "inhibition": "inactive: 2.73%"}
